Construct, isoform or probe ends are uncertain for at least one entry. At least one verdict was read from the data and is not stated in words by the source.

By UniProt entry, the sequences of proteins in these tests, tags left out. Chains listed by the source or under a name are the forms on record and can include a tag or linker. Residues count along the entry.
UniProt Q9KMA5, 2-104, tags left off: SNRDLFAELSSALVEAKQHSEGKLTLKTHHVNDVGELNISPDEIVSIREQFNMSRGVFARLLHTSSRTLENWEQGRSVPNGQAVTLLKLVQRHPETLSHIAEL

The target in this series is HigA2 (Vibrio cholerae) (UniProt Q9KMA5). Description: SAXS. The conditions noted are these: recombinant protein; protein details: C-terminal His6, uncleavable.

Take “TGCCATCTGTACGCTTGGTGCGTACACTTCCTA (double strand) [Opr33]”: the binding result is “binds”.
